Reference: article PMC8869097, “Benzothiazole Derivatives as Multifunctional Antioxidant Agents for Skin Damage: Structure–Activity Relationship of a Scaffold Bearing a Five-Membered Ring System” (Antioxidants, 2022)

Key:
[1] = test system: SK-Mel 5 cells; test: Antiproliferative activity; format: cell-based, human; details: IC50 HEK 293 / IC50 SK-Mel5
Protocol: (§1) A stock solution of the compounds (20 mM in DMSO) was prepared and stored at −18 °C. Then, the compounds were diluted in the cell culture medium and tested starting with the 100 µM concentration as the upper limit. The application of equation (6) allowed to obtain the values of IC50. C1 − [50 − N1%/N2% − N1%] − (C1 − C2),(6) where C1 is the concentration of the compound which inhibits cell proliferation by more than 50%; C2 is the concentration of the compound which inhibits cell proliferation below 50%; N1% represents the number of cells (expressed as a percentage of control without compound) obtained in the presence of C1 and N2% represents the number of cells (as a percentage of control without compound) obtained in the presence of C2.
(§2) Finally, the compounds of this series of benzothiazole derivatives were tested to evaluate their antiproliferative activity in vitro against human T-cell leukemia cell line (CEM), human cervical carcinoma cells (HeLa), human pancreas cancer cells (Mia Paca-2) and human melanoma cells (SK-Mel 5). Non-cancerous HEK293T cells (Normal Kidney Epithelial Cells) were chosen as a control for cytotoxicity and/or selectivity. The results obtained have been summarized in Table 5 (data shown only for the active compounds) and are expressed as IC50 values in μM. The selectivity index (SI) was also reported, determined by comparing the values of IC50 (μM) obtained on healthy cells (HEK 293) with that obtained on tumor cells (CEM, HeLa, Mia-Paca-2 and SK- Mel 5) (Table 5).

[2] = test system: CEM cells; test: Antiproliferative activity; format: cell-based, human; details: IC50 HEK 293 / IC50 CEM
Protocol: Human cervical carcinoma (HeLa) and human CD4+T-lymphoblast (CEM) cells were obtained from ATCC (Middlesex, UK). Human pancreatic carcinoma (Mia-Paca 2) cells were kindly provided by Prof. Anna Karlsson (Karolinska Institute, Stockholm, Sweden). All cell lines were grown in Dulbecco’s modified Eagle’s medium (DMEM; Gibco, Carlsbad, CA, USA), supplemented with 10% fetal bovine serum (FBS, Gibso), 0.01M Hepes (Gibco) and 1 mM sodium pyruvate (Gibco) in a humidified 5% CO2 incubator at 37 °C.
The cell suspensions of CEM, HeLa and Mia-Paca2 were treated with increasing concentrations of the selected compounds, following the protocol previously reported.
as §1
as §2, with “Non-cancerous HEK293T cells (Normal Kidney Epithelial Cells) were chosen as a control for cytotoxicity and/or selectivity.” left out

| Structure (SMILES) | SI SK-Mel5 [1] | SI CEM [2] |
| --- | --- | --- |
| c1c[nH]c(-c2nc3ccccc3s2)c1 [Compound 8a, 2-(1H-Pyrrol-2-Yl)benzothiazole] | 1.66 |  |
| c1coc(-c2nc3ccccc3s2)c1 [Compound 9a, 2-(Furan-2-Yl)benzothiazole] | 1.02 | 2.44 |
| c1csc(-c2nc3ccccc3s2)c1 [Compound 10a, 2-(Thiophen-2-Yl)benzothiazole] | 2.00 | 2.22 |
| c1c[nH]c(-c2nc3ccccc3[nH]2)c1 [Lead 10, reference compound] | 3.20 | 2.21 |
